Like-named read-outs stand apart in the source and are kept apart here.
Key:
[1] = biological target: 4-repeats (28 amino acids) Ser-5 phosphorylated CTD peptide, fluorescently labelled with FAM at the N-terminal end
[2] = biological target: 4-repeats (28 amino acids) Ser-5 phosphorylated CTD peptide, fluorescently labelled with FAM at the N-terminal end; remark: listed apart in the source
[3] = biological target: 4-repeats (28 amino acids) Ser-5 phosphorylated CTD peptide, fluorescently labelled with FAM at the N-terminal end; assay: fluorescence anisotropy, FAM-labelled four-repeat SeP5 peptide
[4] = biological target: 4-repeats (28 amino acids) Ser-5 phosphorylated CTD peptide, fluorescently labelled with FAM at the N-terminal end; remark: listed apart in the source

Row | Substance | Kd [1] [µM] | Fold change (KD against wild type FluA) [2] [fold] | fold decrease of affinity against wild type bat FluA polymerase [3] [fold] | Kd [2] [µM] | fold decrease of binding affinity against wild type FluB polymerase [4] [fold] | Fold change (KD against wild type FluB) [2] [fold]
1 | recombinant bat FluA polymerase with the PA double mutation K289A+R449A (site 2) | 3.6 |  |  |  |  | 
2 | recombinant bat FluA polymerase with the PA double mutation K289A+R449A (site 2) (enzyme) |  | 3.9 | 4 |  |  | 
3 | recombinant bat FluA polymerase with the PA double mutation K630A+R633A (site 1) (enzyme) |  | 7.7 | 7.5 | 6.9 |  | 
4 | FluB polymerase with the PA double mutation K631A+R634A (site 1) |  |  |  | 7.5 | 2.5 | 2.6

— US20190252037A1
